Anti-infective test results gathered from many reports (values: NIAID ChemDB through PubChem).

Shared fields: growth or infection tests; organism: HIV-1; cell line: PBL; read-out: EC50

ECn is the concentration giving n% inhibition of infection, replication or growth. Conditions beyond the fields shown may differ between rows. Two numbers with a dash give a range or band. Blank or dashed fields: not listed here.

compound | strain or isolate | read by | conditions | result
O=C(O)c1cn(-c2cccc(N3CCOCC3)c2)c2c(Cl)c(N3CCN(c4ccc(F)cc4)CC3)c(F)cc2c1=O | - | syncytia | - | 0.4 µM
CC1CN(c2cc3c(cc2F)c(=O)c(C(=O)O)cn3-c2ccc(CN(C)C)cc2)CCN1c1ccccc1 | - | syncytia | - | 0.002 µM
O=C(CN1c2c(-c3ccccc3)n[nH]c2-c2ccccc2S1(=O)=O)N/N=C/c1ccccc1[N+](=O)[O-] | - | - | - | 4.8 µM
O=C(O)c1cn(-c2ccc(Cn3cncn3)cc2)c2cc(N3CCN(c4ccc(F)cc4F)CC3)ccc2c1=O | - | syncytia | - | 0.13 µM
Cn1cc(NC(=O)Nc2cc(C(=O)Nc3cc(C(=O)Nc4ccc(S(=O)(=O)O)c5cc(S(=O)(=O)O)ccc45)n(C)c3)n(C)c2)cc1C(=O)Nc1cc(C(=O)Nc2ccc(S(=O)(=O)O)c3cc(S(=O)(=O)O)ccc23)n(C)c1 | WEJO | p24 | - | 5.3 µM
C=C(C)OC(=O)N1c2cc(Cl)ccc2NC(=S)C1(C)C | MN | p24 | - | 0.007 µM
COC(=O)c1cn2c(c1C(=O)OC)Cc1ccccc1C2 | IIIB | p24 / ELISA | - | >10 µM
Nc1ncnc2c1ncn2[C@@H]1O[C@H](COP(=O)(O)O[C@@H]2[C@H](O)[C@@H](COP(=O)(O)O[C@@H]3[C@H](O)[C@@H](COP(=O)(O)O[C@@H]4[C@H](O)[C@@H](CO)O[C@H]4n4cnc5c(N)ncnc54)O[C@H]3n3cnc4c(N)ncnc43)O[C@H]2n2cnc3c(N)ncnc32)[C@@H](O)[C@H]1O | IIIB | syncytia | - | >300 µM
CCCCCCCCCCCCCCCCOP(=O)(OCCO[C@@H]1O[C@H](CO)[C@@H](O)[C@H](O)[C@@H]1O)OC[C@H]1O[C@@H](n2cc(C)c(=O)[nH]c2=O)C[C@@H]1N=[N+]=[N-] | LAV-Bru | RT activity | 7 d | >1 µM
CCCCCCCCNCC(O)CCCCCCCCCn1c(=O)c2c(ncn2C)n(C)c1=O | Clinical isolate | p24 | - | 1 µM
CC(C)Nc1cnccc1N1CCN(C(=O)c2cc3cc(F)ccc3[nH]2)CC1 | - | p24 | - | 0.01–0.1 µM
COc1cc(N=Nc2cc(S(=O)(=O)O)cc3cc(S(=O)(=O)O)cc(O)c23)c(C)cc1NC(=O)Nc1cc(C)c(N=Nc2cc(S(=O)(=O)O)cc3cc(S(=O)(=O)O)cc(O)c23)cc1OC | LAV-BR | RT activity | - | <100 µM
CN1N=C(N)c2cn([C@@H]3O[C@H](COP(=O)(O)O)[C@@H](O)[C@H]3O)c3ncnc1c23 | IIIB | p24 | - | >10 µM
CCCCCCCCNCC(O)CCCCCCCCCn1c(=O)c2c(ncn2C)n(C)c1=O | JR-CSF | p24 | - | 1 µM
COc1ccc(N2CCN(c3c(F)cc4c(=O)c(C(=O)O)cn(-c5cccc(N6CCOCC6)c5)c4c3Cl)CC2)cc1 | - | syncytia | - | 0.35 µM
NCCSSCCN | IIIB | p24 | - | ~50 µM
CC(=O)c1ccc(C)cc1NC(C(N)=O)c1c(Cl)cccc1Cl | IIIB | p24 | - | 0.014 µM
C[C@H]1[C@H](O)[C@@H](C)/C=C/C=C/C=C/C=C/C=C/C=C/C=C/[C@H](O[C@@H]2O[C@H](C)[C@@H](O)[C@H](N)[C@@H]2O)C[C@@H]2O[C@](O)(C[C@@H](O)C[C@@H](O)CC[C@H](O)[C@@H](O)C[C@@H](O)CC(=O)O[C@H]1C)C[C@H](O)[C@H]2C(=O)O | NL4-3 WT | RT activity | - | <10 µM
CCNc1cccnc1N1CCN(C(=O)c2cc3ccccc3o2)CC1 | - | p24 | - | ≥1 µM
CCOC(=O)c1[nH]c(C)c(C(=O)O)c1C | IIIB | p24 / ELISA | - | >10 µM
CCc1ccccc1N1CCN(c2c(F)cc3c(=O)c(C(=O)O)cn(-c4ccc(CN5CCOCC5)cc4)c3c2Cl)CC1 | - | syncytia | - | 0.3 µM
O=C(O)c1cn(-c2ccc(Cn3cncn3)cc2)c2c(F)c(N3CCN(c4ccc(Cl)c(C(F)(F)F)c4)CC3)c(F)cc2c1=O | - | syncytia | - | 0.7 µM
CC(C)[C@H](NC(=O)[C@H](Cc1cccc2ccccc12)CS(=O)(=O)C(C)(C)C)C(=O)N[C@@H](Cc1ccccc1)[C@@H](O)CN1C[C@@H]2CCCC[C@@H]2C[C@H]1C(F)(F)F | - | - | - | >1 µM
Nc1ncnc2c1ncn2C/C=C\CO | - | - | - | >100 µM
CC(C)C[C@H](NC(=O)[C@@H](NC(=O)[C@@H](N)CC(C)C)[C@@H](C)O)C(=O)N[C@@H](CC(N)=O)C(=O)N[C@@H](Cc1ccccc1)C(=O)O | - | syncytia | - | >200 µg/mL
Cc1cn([C@H]2C[C@H](N=[N+]=[N-])[C@@H](COP(=O)(O)OCCO[C@H]3O[C@H](CO)[C@@H](O)[C@H](O)[C@@H]3O)O2)c(=O)[nH]c1=O | LAV-Bru | RT activity | 7 d | <1 µM
CCn1c(C)c(C(=O)O)c(C(=O)O)c1Cc1ccccc1 | IIIB | p24 / ELISA | - | >10 µM
COc1ccc2c(c1)N(C(=O)OC(C)C)[C@@H](CSC)C(=S)N2 | D34 | p24 | - | 0.001 µM
CCCCn1c(C)c(C(=O)OC)c(C(=O)OC)c1-c1ccccc1 | IIIB | p24 / ELISA | - | >1 µM
CC(C)[C@H](NC(=O)[C@H](Cc1cccc2ccccc12)CS(=O)(=O)C(C)(C)C)C(=O)N[C@@H](Cc1ccccc1)[C@@H](O)CN1CC[C@H]2CCCC[C@H]2[C@H]1C(F)(F)F | - | - | - | >2.545 µM
CCc1c(Sc2ccccc2)n(COCc2ccccc2)c(=O)[nH]c1=O | IIIB | p24 | - | 0.0072 µM
O=C(O)c1cn(-c2ccc(Cn3cncn3)cc2)c2cc(N3CCN(c4cccc5ccccc45)CC3)ccc2c1=O | - | syncytia | - | 0.7 µM
NCCC[C@@H](N)CC(=O)NCN | IIIB | p24 | - | 7.5 µM
O=C(O)c1cn(-c2ccc(CN3CCOCC3)cc2)c2c(Cl)c(N3CCN(c4ccc(F)cc4)CC3)c(F)cc2c1=O | - | syncytia | - | 0.03 µM
CC[C@H](C)[C@H](NC(=O)[C@H](CCC(N)=O)NC(=O)[C@@H]1CCCN1C(C)=O)C(=O)N[C@H](C(=O)N[C@@H](CC(C)C)C(=O)O)[C@@H](C)O | - | syncytia | - | >200 µg/mL
CCc1ccccc1N1CCN(c2ccc3c(=O)c(C(=O)O)cn(-c4ccc(Cn5cncn5)cc4)c3c2)CC1 | - | syncytia | - | 0.08 µM
COc1ccccc1N1CCN(c2c(F)cc3c(=O)c(C(=O)O)cn(-c4ccc(CN5CCOCC5)cc4)c3c2Cl)CC1 | - | syncytia | - | 0.03 µM
CC(C)(C)S(=O)(=O)C[C@@H](Cc1cccc2ccccc12)C(=O)N[C@@H](CC(N)=O)C(=O)N[C@@H](Cc1ccccc1)[C@H](O)C(O)CN1CCC[C@H]1C(F)(F)F | - | - | - | 16 µM
COC(=O)c1c(C)[nH]c(Cc2ccccc2)c1C(=O)OC | IIIB | p24 / ELISA | - | >10 µM
O=C(O)c1cn(-c2cccc(N3CCOCC3)c2)c2c(Cl)c(N3CCN(c4ccccc4)CC3)c(F)cc2c1=O | - | syncytia | - | 0.45 µM
CCOC(=O)c1c(C)c(C(=O)OCC)n(C)c1C | IIIB | p24 / ELISA | - | >10 µM
O=C(NCc1ccc2c(c1)[C@@H](O)[C@@H](O)c1cc(CNC(=O)OCc3ccccc3)ccc1C2=O)OCc1ccccc1 | - | syncytia | - | 10 µM
COC(=O)c1cn2c(ccc3ccccc32)c1C(=O)OC | IIIB | p24 / ELISA | - | >10 µM
Nc1ccn(C/C=C\COCP(=O)(O)O)c(=O)n1 | - | - | - | >100 µM
O=C(O)c1cn(-c2cccc(N3CCOCC3)c2)c2nc(N3CCN(c4ccc(F)cc4)CC3)c(F)cc2c1=O | - | syncytia | - | 0.6 µM
COC(=O)c1c(C(=O)OC)c2n(c1C)C(c1ccc(OC)cc1)SC2 | IIIB | p24 / ELISA | - | >1 µM
CC1CN(c2cc3c(cc2F)c(=O)c(C(=O)O)cn3-c2ccc(Cn3cncn3)cc2)CCN1c1ccccc1 | - | syncytia | - | 0.08 µM
O=C(OC[C@H]1O[C@@H](OC(=O)c2cc(OS(=O)(=O)O)c(OS(=O)(=O)O)c(OS(=O)(=O)O)c2)[C@H](OC(=O)c2cc(OS(=O)(=O)O)c(OS(=O)(=O)O)c(OS(=O)(=O)O)c2)[C@@H](OC(=O)c2cc(OS(=O)(=O)O)c(OS(=O)(=O)O)c(OS(=O)(=O)O)c2)[C@@H]1OC(=O)c1cc(OS(=O)(=O)O)c(OS(=O)(=O)O)c(OS(=O)(=O)O)c1)c1cc(OS(=O)(=O)O)c(OS(=O)(=O)O)c(OS(=O)(=O)O)c1 | IIIB | p24 | 12 d | 2.55 µg/mL
CC(C)[C@H](NC(=O)[C@H](Cc1cccc2ccccc12)CS(=O)(=O)C(C)(C)C)C(=O)N[C@@H](Cc1ccccc1)[C@@H](O)C(O)CN1CCCC[C@H]1C(F)(F)F | - | - | - | 5.2 µM
CCOc1ccccc1N1CCN(c2ccc3c(=O)c(C(=O)O)cn(-c4ccc(Cn5cncn5)cc4)c3c2)CC1 | - | syncytia | - | 0.3 µM
COc1ccccc1N1CCN(c2c(F)cc3c(=O)c(C(=O)O)cn(-c4ccc(Cn5cncn5)cc4)c3c2OC(F)F)CC1 | - | syncytia | - | 0.004 µM
CC(C)[C@H](NC(=O)[C@H](Cc1cccc2ccccc12)CS(=O)(=O)C(C)(C)C)C(=O)N[C@@H](Cc1ccccc1)[C@@H](O)CN1CCc2ccccc2[C@H]1C(F)(F)F | - | - | - | >1 µM
Nc1nc2c(ncn2C/C=C\CO)c(=O)[nH]1 | - | - | - | >100 µM
CC(C)C[C@H](NC(=O)[C@@H](N)[C@@H](C)O)C(=O)N[C@@H](CC(N)=O)C(=O)N[C@@H](Cc1ccccc1)C(N)=O | - | syncytia | - | >200 µg/mL

The last 7 rows once more:

compound | strain or isolate | read by | conditions | result
O=C(OC[C@H]1O[C@@H](OC(=O)c2cc(OS(=O)(=O)O)c(OS(=O)(=O)O)c(OS(=O)(=O)O)c2)[C@H](OC(=O)c2cc(OS(=O)(=O)O)c(OS(=O)(=O)O)c(OS(=O)(=O)O)c2)[C@@H](OC(=O)c2cc(OS(=O)(=O)O)c(OS(=O)(=O)O)c(OS(=O)(=O)O)c2)[C@@H]1OC(=O)c1cc(OS(=O)(=O)O)c(OS(=O)(=O)O)c(OS(=O)(=O)O)c1)c1cc(OS(=O)(=O)O)c(OS(=O)(=O)O)c(OS(=O)(=O)O)c1 | IIIB | p24 | 12 d | 2.55 µg/mL
CC(C)[C@H](NC(=O)[C@H](Cc1cccc2ccccc12)CS(=O)(=O)C(C)(C)C)C(=O)N[C@@H](Cc1ccccc1)[C@@H](O)C(O)CN1CCCC[C@H]1C(F)(F)F | - | - | - | 5.2 µM
CCOc1ccccc1N1CCN(c2ccc3c(=O)c(C(=O)O)cn(-c4ccc(Cn5cncn5)cc4)c3c2)CC1 | - | syncytia | - | 0.3 µM
COc1ccccc1N1CCN(c2c(F)cc3c(=O)c(C(=O)O)cn(-c4ccc(Cn5cncn5)cc4)c3c2OC(F)F)CC1 | - | syncytia | - | 0.004 µM
CC(C)[C@H](NC(=O)[C@H](Cc1cccc2ccccc12)CS(=O)(=O)C(C)(C)C)C(=O)N[C@@H](Cc1ccccc1)[C@@H](O)CN1CCc2ccccc2[C@H]1C(F)(F)F | - | - | - | >1 µM
Nc1nc2c(ncn2C/C=C\CO)c(=O)[nH]1 | - | - | - | >100 µM
CC(C)C[C@H](NC(=O)[C@@H](N)[C@@H](C)O)C(=O)N[C@@H](CC(N)=O)C(=O)N[C@@H](Cc1ccccc1)C(N)=O | - | syncytia | - | >200 µg/mL